# Experimental data published in PubChem BioAssay AID2221 (Broad Institute, 2009).
# Sequences of proteins named here, by UniProt entry; tags and fusion partners are left off.
# UniProt P9WHJ3, whole entry: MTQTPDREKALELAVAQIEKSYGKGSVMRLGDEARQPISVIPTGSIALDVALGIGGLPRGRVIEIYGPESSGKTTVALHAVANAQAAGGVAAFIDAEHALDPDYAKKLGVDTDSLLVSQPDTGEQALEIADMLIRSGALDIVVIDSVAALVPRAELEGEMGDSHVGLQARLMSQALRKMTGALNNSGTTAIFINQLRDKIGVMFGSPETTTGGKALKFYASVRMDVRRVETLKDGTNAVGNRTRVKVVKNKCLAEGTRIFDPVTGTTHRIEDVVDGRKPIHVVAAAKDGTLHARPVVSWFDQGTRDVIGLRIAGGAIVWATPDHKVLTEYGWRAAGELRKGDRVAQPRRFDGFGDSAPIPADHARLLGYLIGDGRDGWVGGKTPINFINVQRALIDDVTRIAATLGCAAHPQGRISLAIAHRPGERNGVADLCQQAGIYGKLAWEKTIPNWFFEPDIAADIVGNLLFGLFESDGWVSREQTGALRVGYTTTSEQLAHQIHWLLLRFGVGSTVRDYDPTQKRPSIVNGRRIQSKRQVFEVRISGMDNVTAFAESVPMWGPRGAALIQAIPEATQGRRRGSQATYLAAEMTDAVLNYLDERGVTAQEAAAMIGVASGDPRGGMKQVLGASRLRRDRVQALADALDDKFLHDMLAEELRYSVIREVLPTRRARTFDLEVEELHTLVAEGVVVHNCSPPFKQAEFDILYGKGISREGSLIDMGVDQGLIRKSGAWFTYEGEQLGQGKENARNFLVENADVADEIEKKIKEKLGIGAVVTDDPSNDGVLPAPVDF
# This is a selection; strong and weak results do not stand in their true shares. Calls of active or inactive are those of the source. Cut-off read from the data, not from the text of the source: active = inhibition above about 30%; inconclusive = no clear call, values can overlap the other calls; inactive = below that.
# Biological target: Protein RecA (Mycobacterium tuberculosis (strain ATCC 25618 / H37Rv)) (UniProt P9WHJ3)
# Experiment: Mtb RecA intein splicing inhibitors, primary screen, biochemical, fluorescence, HTS (AID 2221);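 note: 0% = vehicle wells and 100% = reference inhibitor control wells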
# Settings: cell-free RecA intein splicing, active compounds read high, concentration not given here
row,Compound,inhibition
1,COc1cc(OC)cc(C(=O)NCC2(N3CCCCC3)CCCCC2)c1,inactive: 0.134%
2,Cc1ccc(C(=O)NCC2(N3CCCCC3)CCCCC2)o1,inactive: -0.773%
3,Fc1ccccc1NC1CCN(Cc2ccccc2)CC1,inactive: 2.4%
4,CCN1CCC(Nc2cccc(F)c2)CC1,inactive: 5.21%
5,CN(C)c1ccc(C(=O)NCC2(N3CCCCC3)CCCCC2)cc1,inactive: -0.851%
6,CN1CCC(Nc2ccc(F)c(Cl)c2)CC1,inactive: -1.06%
7,CCCOc1ccc(C(=O)NCC2(N(C)C)CCCCC2)cc1,inactive: -0.145%
8,O=C(O)C1(Nc2ccccc2)CCN(Cc2ccccc2)CC1,inactive: -0.365%
9,CCC(CO)(C(=O)OC1CN2CCC1CC2)c1ccccc1 (stereo unspecified),inactive: -1.71%
10,COc1cc(OC)cc(C(=O)NCC2(N3CCOCC3)CCCCC2)c1,inactive: 0.2%
11,COc1cccc(C(=O)N(c2cc(C)cc(C)c2)C2CCN(C(=O)OC(C)(C)C)CC2)c1,inactive: 4.73%
12,CCCOc1ccc(C)cc1CN(CCCl)CCCl,inactive: 2.68%
13,CN1CCC(Nc2ccc(Cl)cc2)CC1,inactive: 2.67%
14,COc1ccc(C(=O)NCC2(N3CCOCC3)CCCCC2)cc1OC,inactive: -1.37%
15,N/C(=N\O)c1c(N)no[n+]1[O-],inactive: -1.46%
16,CCOC(=O)N1CCC(Nc2ccc(C)cc2)CC1,inactive: -1.86%
17,CCc1cc(C(=O)NCC2(N3CCCCC3)CCCCC2)sc1C,inactive: 0.757%
18,O=C(OC1CN2CCC1CC2)C1c2ccccc2C=Cc2ccccc21 (stereo unspecified),inactive: -2.93%
19,CC(C)(C)OC(=O)N1CCC(N(C(=O)c2ccccc2)c2ccc(Cl)cc2)CC1,inactive: 0.0667%

row,Compound,inhibition
1,N#Cc1ccc(C(=O)NCC2(N3CCCCC3)CCCCC2)cc1,inactive: 0.0742%
2,c1ccc(CN2CCC(Nc3ccccc3)CC2)cc1,inactive: -0.179%
3,CCCN1CCC(Nc2cc(OC)cc(OC)c2)CC1,inactive: -3.67%
4,CN(C)C1(CNC(=O)c2cccc(C#N)c2)CCCCC1,inactive: -2.1%
5,O=C(NCC1(N2CCCCC2)CCCCC1)c1ccc(OC(F)F)cc1,inactive: -0.663%
6,O=C(NCC1(N2CCCCC2)CCCCC1)c1cccc([N+](=O)[O-])c1,inactive: 0.071%
7,CCN1CCC(Nc2ccc(Cl)cc2)CC1,inactive: 3.99%
8,N#CC1(Nc2ccccc2)CCN(CCc2ccccc2)CC1,inactive: -4.53%
9,O=C(NCC1(N2CCCCC2)CCCCC1)c1cccc(C(F)(F)F)c1,inactive: -1.07%
10,CN1CCN(CCOC(=O)C(O)(c2ccccc2)c2ccccc2)CC1,inactive: -0.0448%
11,COc1ccc(NC2CCN(C(=O)OC(C)(C)C)CC2)cc1,inactive: 0.94%
12,COc1cc(C(=O)NCC2(N3CCCCC3)CCCCC2)ccc1OC(F)F,inactive: 1.12%
13,O=C(NCC1(N2CCOCC2)CCCCC1)c1cc(=O)[nH]c2ccccc12,inactive: 0.784%
14,COc1ccc(CN(CCCl)CCCl)cc1Cl,inactive: 4.44%
15,CN(C)c1cccc(C(=O)NCC2(N3CCCCC3)CCCCC2)c1,inactive: 1.51%
16,CC(C)c1ccc(NC2CCN(C(=O)OC(C)(C)C)CC2)cc1,inactive: 1.11%
17,COc1cc(OC)c(C(=O)NCC2(N(C)C)CCCCC2)cc1OC,inactive: -1.32%
18,CN1CCC(Nc2cccc(F)c2)CC1,inactive: -1.15%
19,CCCOc1ccc(C(=O)NCC2(N(C)C)CCCCC2)cc1OC,inactive: -0.74%

row,Compound,inhibition
1,O=C(NCC1(N2CCCCC2)CCCCC1)c1ccc(=O)[nH]c1,inactive: 0.748%
2,O=C(NCC1(N2CCCCC2)CCCCC1)c1cccs1,inactive: 8.99%
3,COc1ccc(C(=O)NCC2(N3CCCCC3)CCCCC2)cc1,inactive: 2.39%
4,CC(C)(C)OC(=O)N1CCC(N(C(=O)c2ccccc2)c2ccc(F)cc2)CC1,inactive: -0.97%
5,COc1ccc(C(=O)NCC2(N3CCCCC3)CCCCC2)c(OC)c1OC,inactive: 1.77%
6,O=C(NCC1(N2CCOCC2)CCCCC1)c1cc2ccccc2o1,inactive: 2.2%
7,O=C(NCC1(N2CCCCC2)CCCCC1)c1ccc(Cl)nc1,inactive: 1.36%
8,Cc1cc(C)cc(N(C(=O)c2ccccc2)C2CCN(C(=O)OC(C)(C)C)CC2)c1,inactive: 12.8%
9,CCOC(=O)N1CCC(Nc2ccc(OC)cc2)CC1,inactive: -4.3%
10,N#CC1(Nc2ccccc2)CCN(Cc2ccccc2)CC1,inactive: 0.0291%
11,O=C(OC1CN2CCC1CC2)C1c2ccccc2Oc2ccccc21 (stereo unspecified),inactive: -1.26%
12,CCOc1ccc(C)cc1CN(CCCl)CCCl,inactive: 2.93%
13,O=C(NCC1(N2CCCCC2)CCCCC1)c1ccc(F)cc1,inactive: -0.425%
14,COc1ccc(NC2CCN(CCc3ccccc3)CC2)c(OC)c1,inactive: -4.17%
15,CCOC(=O)N1CCC(Nc2ccc(F)cc2)CC1,inactive: -3.87%
16,CCOC(=O)N1CCC(Nc2cccc(C)c2)CC1,inactive: 2.46%
17,COc1cc(C(=O)NCC2(N(C)C)CCCCC2)ccc1OC(F)F,inactive: -0.145%
18,Cc1ccc(OCC(C)C)c(CN(CCCl)CCCl)c1,inactive: 5.13%
